# From US20110269834A1 (priority 2008, published 2011)
# Biological target: SARS-CoV PLpro (Severe acute respiratory syndrome coronavirus, UniProt P0C6X7)
# Assay: biochemical
structure (smiles),measurement,value
"Cc1ccc(N)cc1C(=O)N[C@H](C)c1cccc2ccccc12 [Compound 24, 5-Amino-2-methyl-N—[(R)-1-(1-naphthyl)ethyl]benzamide]",Ki,0.49 ± 0.08 µM
